From US6355627B1, “Branched cyclodextrin clathrate compound of hinokitiols and composition containing the same” (Takasago International Corporation, priority 1999, dated 2002)

Assay: Evaluation of corrosion of stainless test piece in aqueous solution
Conditions: 0.1% aqueous solution (1.0% for the clathrate), stirred

In the case of `CC(C)c1cccc(=O)c(O)c1` [Hinokitiol], the “Corrosion rate at 90° C., Sus 304” value (90° C.) is reported as 3.27 mm/year and 3.27 mm mm/year and the “Corrosion rate at 25° C., Sus 304” value (room temperature (25° C.)) is reported as 0.67 mm/year and 0.67 mm mm/year.

Several values for one entry are separate records, joined by “and”; a condition that tells them apart may be missing. Identical values can stand only once.
